Experimental data taken from PubChem BioAssay AID720541 (National Center for Advancing Translational Sciences (NCATS), 2013).
This list holds what a sample rich in hits left over. Records with an inconclusive call do not appear. Activity calls are given as the source filed them. Calls come from the whole dose curve; as a rule, active = well fitted inhibition curve with a large enough effect; inconclusive = small, poorly fitted or top-dose-only effect; inactive = no such curve, though single readings can be large or run the other way.

target: C-terminal-binding protein 1 (Homo sapiens) (UniProt Q13363); assay: qHTS for Inhibitors of the Phosphatase Activity of Eya2: Carboxyl-terminal binding protein (CtBP) Counterscreen for Cherry-picked Compounds; settings: purified protein-protein binding, AlphaScreen, 3 h; at 46.1 µM (top of the series); note: nearly all actives have a fitted effect of over 65% in size
Text: The Eya protein family is an essential co-activator of the Six1 transcription factor. Six1 is a developmental gene that is abnormally re-expressed in a large percentage of breast cancers. This over-expression plays a causal role in the initiation and metastatic development of breast cancers. The Eya family of protein is also found to contain a unique HAD phosphatase domain with protein tyrosine phosphatase activity which can potentially play a role in Six1-mediated breast tumorigenesis. Recently, Eya2 is found to dephosphorylate the histone variant H2AX and direct cells towards DNA repair instead of apoptosis in the event of DNA damage.
A 1536 well format, fluorescence based qHTS assay was developed and used to target the phosphatase activity of Eya2 (AID 488837). In addition, a CtBP counterscreen was developed using the AlphaScreen technology to evaluate compound selectivity to target […]. The data herein reports the activity of the cherry-picked compounds against the CtBP AlphaScreen. Compounds that are active or have > 100 fold selectivity vs. the Eya2 activity were excluded for further characterization. […]
Four microliters of reagent (25 nM GST-E1A, 25 nM CtBP-6x HIS) was dispensed in a 1536 well Greiner plates. […] The AlphaScreen signal was obtained using the PerkinElmer EnVision plate reader using the 680 nm excitation and 520 - 620 nm emission filters. […]
% is set by controls: 0 for no effect and ±100 for the full control effect.

Structure (SMILES) | activity change, negative = inhibition
[Cl][V][Cl].c1cc[cH-]c1.c1cc[cH-]c1 | inactive: 10.3%
